The values that follow come from patent publication US20220081444A1, “6,7-DIHYDRO-4H-PYRAZOLO[1,5-A]PYRAZINE INDOLE-2-CARBOXAMIDES ACTIVE AGAINST THE HEPATITIS B VIRUS (HBV)” (AiCuris GmbH & Co. KG, priority 2018, published 2022).

Structures were worked out from names or drawings and are uncertain.

In data set [1] the test system is HBV. In words: Determination of HBV DNA from the supernatants of HepAD38 cells (anti-HBV activity). The note with it: read-out: Cell Activity (EC50).
The test system of data set [2] is HepAD38 cells.

Usually EC50 stands for the concentration giving half of the maximal effect. In general, CC50 refers to the concentration that lowers cell viability or growth by half. Low readings indicate harm at low concentration, high ones better tolerance by the cells. Regarding `CC(C)(C)OC(=O)N1CCC(C(=O)Nc2cc3n(n2)CCN(C(=O)c2cc4ccccc4[nH]2)C3)CC1`, in data set [1], the concentration giving a half-maximal response (EC50) was below 1 µM. Besides, the half-maximal cytotoxic concentration (CC50) in data set [2] was above 10 µM.
